Data on one compound can be found in PubChem BioAssay AID652007 (The Scripps Research Institute Molecular Screening Center, 2013).

This is a selection; strong and weak results do not stand in their true shares. The source made the active and inactive calls. Cut-off read from the data, not from the text of the source: active = inhibition above about 36%; inactive = the rest.

This assay relates to transactivating tegument protein VP16 (Human herpesvirus 1). Nature of the assay: VP16 transactivation reporter inhibitors, counter-screen for SRC2 inhibitor project, cell-based, luminescence, single concentration (AID 652007). The settings on record: cell-based VP16 transactivation luciferase reporter, at 8.9 µM, hits give high values. For orientation: The purpose of a counterscreen is to sort out artefacts and off-target activity.
The inhibition is the share of the control response that was lost under treatment. As for `C[N+]1=C2C=CC=CC=C2SC12C([N+](=O)[O-])=CC([N+](=O)[O-])=C[C-]2[N+](=O)[O-]` (stereo unspecified), the inhibition was active: 88.9%.
